Measured values as given in PMC9867676.
The exact form of at least one protein or probe is not confirmed.

Amino acid sequences for entries named in this document (tags omitted). A change or cut given only in a name is not applied to a line headed by its entry.
UniProt Q7A1N5: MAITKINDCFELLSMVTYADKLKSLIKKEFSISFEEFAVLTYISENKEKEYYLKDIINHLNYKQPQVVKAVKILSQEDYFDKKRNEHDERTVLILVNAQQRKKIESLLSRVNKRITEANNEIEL

Target: SarA (UniProt Q7A1N5)
Experiment: EMSA
Conditions: 1 fmol probe, increasing SarA, 50 mM Tris-HCl, 300 mM NaCl, pH 8.0 ([…], room temperature, recombinant protein, label: FAM (reverse primer P-rinA-FAM-R), probe letters rebuilt from the primers and the genome

GAATACCCTCCGTACAAATATGTTTAATCTTCAAAGTGTCTCAATCTACTTCTTAATATCTCTATCTCTCGCTCTTTAACTTTTACATCACCTTTTAACTGTTCCGCTTGTAACATCACACCAAACAATAAGATGACTAGTAATATAATTGCTATGATTAACCACATCATCTACTCCGAC (double strand) [rinA promoter fragment (FAM)]
binding result: binds
